Test system: influenza A virus strain fowl plague virus (FPV)
Type: cell-based

Substance: XIAP
- reduction of the influenza virus titer: approx. 50%

— patent US20090155270A1, “CASPASE INHIBITORS, […] 3 INHIBITORS, FOR THE TREATMENT OF INFLUENZA” (priority 2003, published 2009)
